Experimental data from the CheMixHub viscosity set.

Conditions: 101.3 kPa

CCCC[N+]1(C)CCCC1.O=S(=O)(F)[N-]S(=O)(=O)F
Conditions | viscosity [mPa·s]
293.15 K | 107
298.15 K | 86
303.15 K | 70.2
308.15 K | 58
313.15 K | 48.6
318.15 K | 41.2
323.15 K | 35.2
